Results of unrelated studies side by side (data: NIAID ChemDB).

Shared fields: tests in culture; species: Mycobacterium tuberculosis

Inhibition is in % at the dose shown (toxicity tests: loss of growth or viability). Blank or dashed fields: not listed here. MIC bound comes from a single tested concentration. ECn is the concentration giving n% inhibition of infection, replication or growth. Neighbouring rows are from separate reports. A number after MIC or MFC names an inhibition level or a share of isolates.

| structure | changes | dose | read-out | setting | strain or isolate | read by | result |
|---|---|---|---|---|---|---|---|
| NC[C@H]1O[C@H](O[C@H]2[C@H](O)[C@@H](O[C@H]3O[C@H](CO)[C@@H](O)[C@H](N)[C@H]3O)[C@H](N)C[C@@H]2N)[C@H](O)[C@@H](O)[C@@H]1O |  |  | MIC |  | Isolate 3 |  | 4 µg/mL |
| O=c1cc(-c2ccccc2Br)oc2ccccc12 |  |  | MIC |  | H37Rv |  | >12.5 µg/mL |
| CCOC(=O)Nc1cc(NC(C)C(C)c2ccc3c(c2)OCO3)c([N+](=O)[O-])c(N)n1 |  |  | EC50 |  | H37Rv |  | >12.5 µg/mL |
| O=C(Oc1ccc(Br)cc1C(=O)Nc1ccc(C(F)(F)F)cc1)c1cnccn1 |  |  | MIC | 21 d | multidrug resistant 7357/1998 |  | 0.25 µM |
| O=C(O)c1cc([N+](=O)[O-])c2c(c1)P(=O)(O)c1cc(C(=O)O)cc([N+](=O)[O-])c1O2 |  | 12.5 µg/mL | inhibition |  | H37Rv | BACTEC | -10% |
| CCc1cc(C(N)=S)ccn1 |  |  | MBC |  | 131-4 |  | 2.5 µg/mL |
| CCOC(=O)Nc1cc(N)c2ncc(-c3cc(OC)c(OC)c(OC)c3)nc2n1 |  |  | EC50 |  | H37Rv |  | >12.5 µg/mL |
| NNC(=O)c1ccc(C(=O)NN)nc1 |  |  | MIC bound |  | H37Rv | BACTEC | >12.5 µg/mL |
| CC(=O)NC[C@H]1CN(c2ccc(N3CCN(c4ccc([N+](=O)[O-])s4)CC3)c(F)c2)C(=O)O1 |  |  | MIC |  | M-149 |  | 0.25 µg/mL |
| CCOC(=O)c1c(N)sc2c1CCN(C(=O)OCc1ccccc1)C2 |  |  | MIC |  | H37Rv | resazurin | >100 µg/mL |
| CC[C@H]1OC(=O)[C@H](C)[C@@H](O[C@H]2C[C@@](C)(OC)[C@@H](O)[C@H](C)O2)[C@H](C)[C@@H](O[C@@H]2O[C@H](C)C[C@H](N(C)C)[C@H]2O)[C@](C)(O)C[C@@H](C)CN(C)[C@H](C)[C@@H](O)[C@]1(C)O |  |  | MIC |  | ATCC 35820 |  | >8 µg/mL |
| O=c1c(Cl)c(Cl)cnn1CCCl |  |  | MIC bound |  |  | resazurin | >6.25 µg/mL |
| O=C1CC(c2ccccc2)Oc2cc(Cl)ccc21 |  |  | EC50 |  |  |  | >12.5 µg/mL |
| CC[C@H]1OC(=O)[C@H](C)[C@@H](O[C@H]2C[C@@](C)(OC)[C@@H](O)[C@H](C)O2)[C@H](C)[C@@H](O[C@@H]2O[C@H](C)C[C@H](N(C)C)[C@H]2O)[C@](C)(OC)C[C@@H](C)C(=O)[C@H](C)[C@@H](O)[C@]1(C)O |  |  | MIC |  | ATCC 35820 |  | >8 µg/mL |
| N#C/C(=C/c1ccccn1)c1nc(-c2ccc(Cl)cc2)cs1 |  | 12.5 µg/mL | inhibition |  | H37Rv | BACTEC | 42% |
| CO[C@H]1/C=C/O[C@@]2(C)Oc3c(C)c(O)c4c(O)c(c(/C=N/N5CCN(C)CC5)c(O)c4c3C2=O)NC(=O)/C(C)=C\C=C\[C@H](C)[C@H](O)[C@@H](C)[C@@H](O)[C@@H](C)[C@H](OC(C)=O)[C@@H]1C |  |  | MIC |  | H37Rv (kanamycin-resistant) |  | 2.5 µg/mL |
| O=C(/C=C/c1c(F)cccc1Cl)c1ccc(F)cc1 |  |  | MIC | 7 d | H37Rv | resazurin | 64 µg/mL |
| CC1CN(c2cc3c(cc2F)c(=O)c(C(=O)O)cn3-c2ccc(F)cc2F)CCN1 |  |  | MIC50 |  | Drug-resistant |  | 1 µg/mL |
| CCCCNC(=O)c1c(N)sc2c1CCN(CC)C2 |  |  | MIC |  | H37Rv | resazurin | >100 µg/mL |
| COc1cc(OC)c2c(c1)OC(c1cc(OC)c(OC)c(OC)c1)CC2=O |  |  | EC50 |  | H37Rv |  | >12.5 µg/mL |
| O=C(/C=C/c1c(F)cccc1Cl)c1ccccc1 |  |  | MIC | 7 d | H37Rv | MTT | 16 µg/mL |
| CC[C@@H](CO)NCCN[C@@H](CC)CO |  |  | MIC |  | Strain 24 |  | 8 µg/mL |
| COc1ccc(C(=O)/C=C/c2ccccc2)c(O)c1 |  |  | MIC |  | H37Rv |  | >12.5 µg/mL |
| CN(C1=CC(=O)C(=O)c2ccccc21)c1ccccc1 |  |  | MIC bound |  | H37Rv | resazurin | >6.25 µg/mL |
| CO[C@H]1/C=C/O[C@@]2(C)Oc3c(C)c(O)c4c(O)c(c(/C=N/N5CCN(C)CC5)c(O)c4c3C2=O)NC(=O)/C(C)=C\C=C\[C@H](C)[C@H](O)[C@@H](C)[C@@H](O)[C@@H](C)[C@H](OC(C)=O)[C@@H]1C |  |  | MIC |  | H37Rv |  | 1 µg/mL |
| CCOC(=O)Nc1cc(N(C)C)c([N+](=O)[O-])c(N)n1 |  | 12.5 µg/mL | inhibition |  | H37Rv |  | 0% |
| NNC(=O)c1cc2ccccc2cc1O |  | 12.5 µg/mL | inhibition |  | H37Rv | BACTEC | 8% |
| CO[C@H]1/C=C/O[C@@]2(C)Oc3c(C)c(O)c4c(O)c(c5c(c4c3C2=O)NC2(CCN(CC(C)C)CC2)N=5)=NC(=O)/C(C)=C\C=C\[C@H](C)[C@H](O)[C@@H](C)[C@@H](O)[C@@H](C)[C@H](OC(C)=O)[C@@H]1C |  |  | MIC |  | CSU21 |  | 8 µg/mL |
| COc1c(OC(C)=O)cc2oc3cc(OC(C)=O)c(CCC(C)C)c(O)c3c(=O)c2c1CCC(C)C |  |  | MIC |  | H37Ra | resazurin | 3.12 µg/mL |
| Nc1ccc(C(=O)O)c(O)c1 |  |  | MIC | 14 d | H37Rv 331/88 |  | 62.5 µM |
| CC(=O)c1c(OC(=O)c2ccccc2)cc2oc3cc(O)c(CCC(C)C)c(O)c3c(=O)c2c1CCC(C)C |  |  | MIC |  | H37Ra | resazurin | 3.12 µg/mL |
| Cc1ccc(NCCN(C)C)c2c(=O)c3cc(O)ccc3oc12 |  |  | MIC |  | ETA-R |  | 12.5 µg/mL |
| N#Cc1c(NC(=O)c2c(F)c(F)c(F)c(F)c2F)sc2c1CCOC2 |  |  | EC90 |  | ATCC 35822 | turbidity | 13 µM |
| Cn1cc(NC(=O)c2cc(NC(=O)c3cc(NC=O)cn3C)cn2C)cc1C(=O)NCCC(=N)N |  |  | MIC |  | H37Rv |  | 6.4 µg/mL |
| COc1ccc(-c2oc3ccccc3c(=O)c2O)cc1 |  |  | MIC |  | H37Rv |  | >12.5 µg/mL |
| CCOC(=O)c1c(N)sc2c1CCN(CC)C2 |  |  | MIC |  | H37Rv | resazurin | >100 µg/mL |
| Cc1c2ccn3c(=O)c4ccccc4cc3c2c(C)c2c1[nH]c1ccccc12 |  |  | MIC bound |  | H37Rv | resazurin | >6.25 µg/mL |
| CCNC(=O)c1c(NC(=O)c2c(F)c(F)c(F)c(F)c2F)sc2c1CCN(CC)C2 |  |  | EC50 |  |  | low oxygen | 2 µM |
| Cc1cc(C=C2C(=O)NC(=S)NC2=O)c(C)n1-c1ccccc1 |  |  | MIC bound |  |  | resazurin | >6.25 µg/mL |
| CC(=O)c1c(OCCO)cc2oc3cc(O)c(CCC(C)C)c(O)c3c(=O)c2c1CCC(C)C |  |  | MIC |  | H37Ra | resazurin | 1.56 µg/mL |
| NNC(=O)c1n[nH]nc1N |  |  | MIC |  | H37Rv | BACTEC | ≥12.5 µg/mL |
| C=CCOc1cc2oc3cc(O)c(CCC(C)C)c(O)c3c(=O)c2c(CCC(C)C)c1OC |  |  | MIC |  | M22 | resazurin | 3.12 µg/mL |
| O=C(/C=C/c1ccccc1Cl)c1ccccc1 |  |  | MIC | 21 d | H37Rv | MTT | 32 µg/mL |
| O=C(Nc1ccccc1)c1cnccn1 |  |  | MIC bound |  | H37Rv | BACTEC | >12.5 µg/mL |
| Nc1ncccc1/C=C/C(=O)c1cc2ccccc2cc1O |  |  | MIC |  | H37Rv |  | >12.5 µg/mL |
| C=CC1CN2CCC1CC2C(O)c1ccnc2ccc(OC)cc12.CC([Se][Se]C(C)C(=O)O)C(=O)O |  |  | MIC bound |  | H37Rv | resazurin | >6.25 µg/mL |
| CCN1CCc2c(sc(NC(=O)c3c(F)c(F)c(F)c(F)c3F)c2C#N)C1 | gyrA mutant (D94N) |  | MIC |  | H37Rv | turbidity | 18 µM |
| O=C(O)c1cnc(Cl)cn1 |  |  | MIC |  | VA 205 |  | 256 µg/mL |
| CN1c2ccccc2CCC1CCc1ccc2c(c1)OCO2 |  |  | MIC |  | MT3 |  | >339 µg/mL |
| O=C(/C=C/c1ccccc1)c1ccc(I)cc1O |  |  | MIC |  | H37Rv |  | >12.5 µg/mL |
| CN[C@@H]1[C@H](O[C@H]2[C@H](O[C@H]3[C@H](O)[C@@H](O)[C@H](N=C(N)N)[C@@H](O)[C@@H]3N=C(N)N)O[C@@H](C)[C@]2(O)C=O)O[C@@H](CO)[C@H](O)[C@H]1O |  |  | MIC |  | 41494 |  | <2 µg/mL |
| CNC(=O)Oc1c(C)[nH]ccc1=O |  |  | MIC |  | H37Rv | BACTEC | ≥12.5 µg/mL |
| NCC[C@H](O)C(=O)N[C@@H]1C[C@H](N)[C@@H](O[C@H]2O[C@H](CN)[C@@H](O)[C@H](O)[C@H]2O)[C@H](O)[C@H]1O[C@H]1O[C@H](CO)[C@@H](O)[C@H](N)[C@H]1O |  |  | MIC |  | 2R |  | 2.5 µg/mL |
| O=C(Oc1ccc(Cl)cc1C(=O)Nc1ccc(C(F)(F)F)cc1)c1cnccn1 |  |  | MIC | 14 d | extensively drug resistant Praha 131 |  | 0.125 µM |
| CC1COc2c(N3CCN(C)CC3)c(F)cc3c(=O)c(C(=O)O)cn1c23 |  |  | MBC |  | ATCC 35820 |  | 1 µg/mL |
| NNC(=O)c1ccncc1 |  |  | MIC |  | Isolate N |  | 0.062 µg/mL |
| CCOC(=O)Nc1cc(NC(CC)C(O)c2ccccc2)c([N+](=O)[O-])c(N)n1 |  | 12.5 µg/mL | inhibition |  | H37Rv |  | 0% |
| O=C(Oc1ccc(Cl)cc1C(=O)Nc1ccc(F)cc1)c1cnccn1 |  |  | MIC | 21 d | H37Rv 311/88 |  | 8 µM |
| COc1cccc(/C=C/C(=O)c2ccc(F)cc2)c1F |  |  | MIC | 7 d | H37Rv | resazurin | 16 µg/mL |
| C[C@H]1COc2c(N3CCN(C)CC3)c(F)cc3c(=O)c(C(=O)O)cn1c23 |  |  | MIC |  | Isolate 9 |  | 4 µg/mL |
| C[C@@H]1CN(c2c(F)c(N)c3c(=O)c(C(=O)O)cn(C4CC4)c3c2F)C[C@H](C)N1 |  |  | MBC |  | H37Rv |  | 0.6 µg/mL |
| O=C(Oc1cc(Cl)ccc1C(=O)Nc1ccc(C(F)(F)F)cc1)c1cnccn1 |  |  | MIC | 14 d | H37Rv 331/88 |  | 1 µM |
| O=C(/C=C/c1ccccc1)c1ccc(I)cc1O |  |  | EC50 |  |  |  | >12.5 µg/mL |
| NNC(=O)c1ccncc1 |  |  | MIC |  | Isolate 4 |  | 8 µg/mL |
| O=C(N/N=C/c1ccc(O)cc1O)c1ccncc1 |  |  | MIC |  | RMP-R |  | 1 µg/mL |
| COc1ccc(CCc2cc(OC)c3ccccc3n2)cc1OC |  |  | MIC |  | MT10 |  | >310 µg/mL |
| O=C(/C=C/c1ccc(F)cc1Cl)c1ccccc1 |  |  | MIC | 21 d | H37Rv | resazurin | 32 µg/mL |
| O=C(/C=C/c1ccccc1)c1cc(-c2ccccc2)ccc1O |  | 12.5 µg/mL | inhibition |  | H37Rv |  | 68% |
| CC1CN(c2c(F)cc3c(=O)c(C(=O)O)cn(C4CC4)c3c2F)CC(C)N1 |  |  | MIC |  | Erdman |  | 0.25 µg/mL |
| O=C(/C=C/c1ccc(F)cc1)c1ccc(O)cc1 |  |  | MIC | 7 d | H37Rv | MTT | 32 µg/mL |
| C[C@@H]1CN(c2c(F)c(N)c3c(=O)c(C(=O)O)cn(C4CC4)c3c2F)C[C@H](C)N1 |  |  | MIC |  | CSU26 |  | ≤0.125 µg/mL |
| CC[C@]12C[N+]3([O-])CCc4c([nH]c5ccccc45)[C@@](C(=O)OC)(c4cc5c(cc4OC)N(C)C4C56CCN5CC=C[C@](CC)([C@H]56)[C@@H](OC(C)=O)[C@]4(O)C(=O)OC)C[C@@H](C3)[C@H]1O2 |  | 12.5 µg/mL | inhibition |  | H37Rv | BACTEC | 11% |
| CCOc1cc2oc3cc(=O)/c(=C(\C)O)c(CC=C(C)C)c3c(O)c2c(=O)c1CC=C(C)C |  |  | MIC |  | H37Ra | resazurin | 6.25 µg/mL |
| O=C(/C=C/c1ccc(I)cc1)c1ccccc1O |  |  | MIC |  | H37Rv |  | >12.5 µg/mL |
| CCOC(=O)Nc1cc(NC(=O)OCC)c2c(c1C)NC(C)C(c1ccccc1)=N2 |  | 12.5 µg/mL | inhibition |  | H37Rv |  | 0% |
| O=C(Oc1ccc(Cl)cc1C(=O)Nc1ccc(Cl)c(Cl)c1)c1cnccn1 |  |  | MIC | 21 d | H37Rv 331/88 |  | 1 µM |
| O=C(/C=C/c1cccc(O)c1)c1ccccc1O |  | 12.5 µg/mL | inhibition |  |  |  | 18% |
| CCN1CCc2c(sc(NC(=O)c3c(F)c(F)c(F)c(F)c3F)c2C(N)=O)C1 |  |  | MIC |  | ATCC 35838 RIF-R2 rifampicin-resistant | turbidity | 8.6 µM |
| CCC[CH2][Sn]1([CH2]CCC)[O]C(=O)CN=C(C)c2ccccc2[O]1 |  |  | MIC |  | CS-R |  | 6.3 µg/mL |
| NNC(=O)c1ccncc1 |  |  | MIC |  | 29197 |  | ≥0.2 µg/mL |
| COc1cc(C(=O)N/N=C/c2cccc3ccccc23)ccc1O |  | 12.5 µg/mL | inhibition |  | H37Rv | BACTEC | 52% |
| COc1ccc(/C=C/C(=O)c2cccc(F)c2O)cc1 |  |  | MIC |  | H37Rv |  | >12.5 µg/mL |
| CN1CC(=O)NC2C=CN(Cc3c(Cl)cccc3Cl)C=C2C1=O |  | 12.5 µg/mL | inhibition |  | H37Rv | BACTEC | -6% |
| O=C(/C=C/c1ccccc1)c1ccco1 |  |  | MIC |  | H37Rv |  | 19.2 µg/mL |
| CCCCOc1ccc(/C=N/NC(=O)CNC(=O)Nc2cccc([N+](=O)[O-])c2)cc1 |  | 12.5 µg/mL | inhibition |  | H37Rv | BACTEC | 92% |
| NNC(=O)c1ccncc1 | MDR |  | MIC |  | M6 | resazurin | 2 µg/mL |